Columns and labels:
[1] = test system: E. coli; assay: Antibacterial power measurement of first compound (bacterial inhibition rate, broth, absorbance 600 nm); type: cell-based; settings: 0.01 g first compound in 25 ml broth, 3,000 CFU/ml, 35° C. for 16 hours
[2] = test system: Proteus mirabilis; assay: as above; type: cell-based; settings: 0.01 g first compound in 25 ml broth, 3,000 CFU/ml, 35° C. for 16 hours

Compound: CCCCCCCCCCCC[N+](C)(CCO)CCO
- Bacterial inhibition rate (%) E. Coli [1]: 99.1%
- Bacterial inhibition rate (%) Proteus mirabilis [2]: 99.9%

From patent US20230381077A1, “Antibacterial And Deodorizing Composition, And Preparation Method Therefor” (LG Chem, Ltd., priority 2021, published 2023)
